Results as given in US6423376B1, “Tartaric acid diesters as biodegradable surfactants” (Air Products and Chemicals, Inc., priority 2000, dated 2002).

System: biomass seed from a Easton, Pa. Wastewater Treatment Plant
Experiment: Carbonaceous Biological Demand test (CBOD5/CBOD28), ultimate biodegradability
Settings: for Percent Biodegradation at 5 days, average / Percent Biodegradation at 5 days, Trial 1 / Percent Biodegradation at 5 days, Trial 2 / Percent Biodegradation at 5 days, Trial 3: CBOD5/COD; for Percent Biodegradation at 5 days, average: average of trials 1-3; for Percent Biodegradation at 5 days, Trial 1 / Percent Biodegradation at 5 days, Trial 2 / Percent Biodegradation at 5 days, Trial 3 / Percent Biodegradation at 28 days, Trial 4 / Percent Biodegradation at 28 days, Trial 5 / Percent Biodegradation at 28 days, Trial 6: unacclimatized biomass; for Percent Biodegradation at 5 days, Trial 1 / Percent Biodegradation at 5 days, Trial 2 / Percent Biodegradation at 5 days, Trial 3: below detection limit (<8%) reported as 0; for Percent Biodegradation at 28 days, average / Percent Biodegradation at 28 days, Trial 4 / Percent Biodegradation at 28 days, Trial 5 / Percent Biodegradation at 28 days, Trial 6: CBOD28/COD; for Percent Biodegradation at 28 days, average: average of trials 4-6

| Structure (SMILES) | Percent Biodegradation at 5 days, average | Percent Biodegradation at 5 days, Trial 1 | Percent Biodegradation at 5 days, Trial 2 | Percent Biodegradation at 5 days, Trial 3 | Percent Biodegradation at 28 days, average | Percent Biodegradation at 28 days, Trial 4 | Percent Biodegradation at 28 days, Trial 5 | Percent Biodegradation at 28 days, Trial 6 | biodegradation after 28 days (range over trials) (28 days) |
| --- | --- | --- | --- | --- | --- | --- | --- | --- | --- |
| CC(C)COC(=O)C(O)C(O)C(=O)OCC(C)C (racemic) [Example 3, Diisobutyl-DL-tartrate] | 3% | 3% | 0% | 6% | 30% | 6% | 43% | 22% | – |
| CCC(C)OC(=O)C(O)C(O)C(=O)OC(C)CC (racemic) [Example 4, Di-sec-butyl-DL-tartrate] | 0^a 0^a 0^a 0% | 0^a 0^a 0^a 0% | 0^a 0^a 0^a 0% | 0^a 0^a 0^a 0% | 6% | 6% | 5% | 5% | – |
| CCCCCOC(=O)C(O)C(O)C(=O)OCCCCC (racemic) [Example 5, Dipentyl-DL-tartrate] | 9% | 6% | 6% | 17% | 59% | 58% | 63% | 56% | – |
| CC(C)CCOC(=O)C(O)C(O)C(=O)OCCC(C)C (racemic) [Example 6, Diisoamyl-DL-tartrate] | 13% | 17% | 8% | 13% | 58% | 64% | 56% | 53% | – |
| CCC(C)COC(=O)C(O)C(O)C(=O)OCC(C)CC (racemic) [Example 7, Di(2-methyl-butyl)-DL-tartrate] | 8% | 17% | 6% | 0% | 77% | 63% | 69% | 98% | – |
| CC(C)(C)COC(=O)C(O)C(O)C(=O)OCC(C)(C)C (racemic) [Example 8, Dineopentyl-DL-tartrate] | 0^a 0^a 0^a 0% | 0^a 0^a 0^a 0% | 0^a 0^a 0^a 0% | 0^a 0^a 0^a 0% | 16% | 15% | 8% | 24% | 8-24% |
| CCCCCCOC(=O)C(O)C(O)C(=O)OCCCCCC (racemic) [Example 9, Dihexyl-DL-tartrate] | 15% | 0% | 21% | 22% | 87% | 93% | 69% | 100% | – |
| CC(C)CC(C)OC(=O)C(O)C(O)C(=O)OC(C)CC(C)C (racemic) [Example 10, Di(4-methyl-2-pentyl)-DL-tartrate] | 0^a 0^a 0^a 0% | 0^a 0^a 0^a 0% | 0^a 0^a 0^a 0% | 0^a 0^a 0^a 0% | 10% | 10% | 11% | 9% | – |
| O=C(OCc1ccccc1)C(O)C(O)C(=O)OCc1ccccc1 (racemic) [Example 11, Dibenzyl-DL-tartrate] | 28% | 25% | 24% | 34% | 56% | 52% | 45% | 80% | – |
| CCCCC(CC)COC(=O)C(O)C(O)C(=O)OCC(CC)CCCC (racemic) [Example 12, Di(2-ethylhexyl)-DL-tartrate] | 62% | 100% | 27% | 58% | 100 100 100 100% | 100 100 100 100% | 100 100 100 100% | 100 100 100 100% | – |
